Results of unrelated studies side by side (data: NIAID ChemDB).

All rows: growth or infection tests; agent: Mycobacterium tuberculosis

MIC bound: limit read from a one-dose screen.

compound	strain or isolate	read by	changes	measure	conditions	tested at	result
CC1COc2c(N3CCN(C)CC3)c(F)cc3c(=O)c(C(=O)O)cn1c23	001-013 (drug-resistant)			MIC			1 µg/mL
O=C(Nc1ncc([N+](=O)[O-])s1)c1cccnc1	H37Rv	BACTEC		inhibition		12.5 µg/mL	96%
CO/N=C1\CN(c2nc3c(cc2F)c(=O)c(C(=O)O)cn3C2CC2)CC1CN	44 isolates (resistant)			Mean MIC			6.417 µg/mL
CCCCn1c(-c2cc3ccccc3oc2=O)cs/c1=N\N=C\c1cc(Br)ccc1O	H37Rv			inhibition		12.5 µg/mL	3%
CC(N[C@H]1CS(=O)(=O)C[C@@H]1S(=O)(=O)c1ccc(F)cc1)c1ccccc1	18b	resazurin		MIC			16 µg/mL
CC(C)(C)OC(=O)NC(Cc1cnc[nH]1)C(=O)N1CCCC1C(N)=O	H37Rv	resazurin		inhibition		6.25 µg/mL	-3%
CO[C@H]1/C=C/O[C@@]2(C)Oc3c(C)c(O)c4c(O)c(c(/C=N/N5CCN(C)CC5)c(O)c4c3C2=O)NC(=O)/C(C)=C\C=C\[C@H](C)[C@H](O)[C@@H](C)[C@@H](O)[C@@H](C)[C@H](OC(C)=O)[C@@H]1C	TN981			MIC			>32 µg/mL
O=C(Oc1ccc(Cl)cc1C(=O)Nc1ccc(Cl)c(Cl)c1)c1cnccn1	extensively drug resistant strain			MIC			3.16–6.32 µM
Cc1ccc(S(=O)(=O)[C@H]2CS(=O)(=O)C[C@@H]2NCCc2ccccc2)cc1	Clinical isolate	resazurin		MIC			>16 µg/mL
NC(=O)c1ccc(NC(=O)CCC(=O)Nc2ccc(C(N)=O)cn2)nc1	H37Rv	resazurin		MIC bound			>6.25 µg/mL
NC[C@@H]1O[C@H](O[C@H]2[C@@H](O)[C@H](O[C@@H]3[C@@H](O)[C@H](N)C[C@H](N)[C@H]3O[C@H]3O[C@H](CO)[C@@H](O)[C@H](O)[C@H]3N)O[C@@H]2CO)[C@H](N)[C@@H](O)[C@@H]1O	H37Ra			Median MIC			4 µg/mL
O=C(Oc1ccc(Cl)cc1C(=O)Nc1cccc(C(F)(F)F)c1)c1cnccn1	multidrug resistant Praha 1			MIC	14 d		1 µM
CO[C@H]1/C=C/O[C@@]2(C)Oc3c(C)c(O)c4c(O)c(c5c(c4c3C2=O)NC2(CCN(CC(C)C)CC2)N=5)=NC(=O)/C(C)=C\C=C\[C@H](C)[C@H](O)[C@@H](C)[C@@H](O)[C@@H](C)[C@H](OC(C)=O)[C@@H]1C	Strain 101 (D516E L533P)			MIC			0.25 µg/mL
C=CCn1c(-c2cc3ccccc3oc2=O)cs/c1=N\N=C\c1ccc(O)c(OCC)c1	H37Rv			MIC			>12.5 µg/mL
C[C@H]1COc2c(N3CCN(C)CC3)c(F)cc3c(=O)c(C(=O)O)cn1c23	250 isolates			MIC90			1 µg/mL
COc1ccc(-c2cc(C(O)C3CCCCN3)c3ccccc3n2)cc1	H37Rv	resazurin		MIC bound			>6.25 µg/mL
Cc1ccc(NC(=O)CSc2nnc(-c3ccco3)o2)cc1F	18b	resazurin		MIC			4 µg/mL
NC1CCN(c2c(F)cc3c(=O)c(C(=O)O)cn(C4CC4)c3c2Cl)C1	MDR			MIC50			1 µg/mL
NC(=O)OCc1c(-c2ccccc2)nn(-c2ccccc2)c1COC(N)=O	H37Rv			MIC bound			>6.25 µg/mL
NNC(=O)c1ccncc1	H37Rv			Median MIC			0.025 µg/mL
CO[C@@H]1CC(=NOC(C)=O)[C@@H]2OC(c3ccccc3)OC[C@H]2O1	H37Rv	resazurin		inhibition		6.25 µg/mL	32%
CC[C@H]1OC(=O)[C@H](C)[C@@H](O[C@H]2C[C@@](C)(OC)[C@@H](O)[C@H](C)O2)[C@H](C)[C@@H](O[C@@H]2O[C@H](C)C[C@H](N(C)C)[C@H]2O)[C@](C)(O)C[C@@H](C)CN(C)[C@H](C)[C@@H](O)[C@]1(C)O	ATCC 35823			MIC			>8 µg/mL
Clc1nc2nc3n(c2nc1Cl)CCC3(Br)Br	H37Rv	resazurin		MIC bound			>6.25 µg/mL
NNC(=O)c1ccncc1	104396			MIC			≥0.2 µg/mL
COCc1cc(C)nc(N/N=C/c2cc(OC)ccc2OC)c1C#N	Clinical isolate	resazurin		MIC			16 µg/mL
CCc1ccc([C@H]2C[C@@H](C(F)(F)F)n3ncc(C(=O)NCc4ccc(OC)cc4)c3N2)cc1	H37Rv	fluorescence	MmpL3: Phe255Val	fold resistance			2
COc1cc(C(=O)NCC(=O)NN=C(C)C)cc(OC)c1OC	H37Rv	BACTEC		inhibition		12.5 µg/mL	0%
C[C@@H]1CN(c2c(F)c(N)c3c(=O)c(C(=O)O)cn(C4CC4)c3c2F)C[C@H](C)N1	MDR			MIC90			1 µg/mL
CCC(C)(C)NCCNCc1cccc(F)c1				MIC			50 µM
C[C@H]1COc2c(N3CCN(C)CC3)c(F)cc3c(=O)c(C(=O)O)cn1c23	H37Rv			MIC			0.25 µg/mL
CCCC(C)C(=O)Nc1nc2c(s1)C(=O)CC(C)(C)C2	Clinical isolate	resazurin		MIC			2 µg/mL
CCOC(=O)N1CCN(c2ccc(C3CC(c4ccc([N+](=O)[O-])o4)=NO3)cc2)CC1	UT30			MIC			0.003 µg/mL
Cc1onc(-c2ccccc2Cl)c1C(=O)N[C@@H]1C(=O)N2[C@@H]1SC(C)(C)[C@@H]2C(=O)O	H37Ra			Mean MIC			112 µg/mL
Cc1nc(Cl)c(C(N)=O)nc1C	H37Rv	BACTEC		MIC bound			>12.5 µg/mL
N[C@@H]1CONC1=O	H37Ra			Mean MIC			25 µg/mL
O=[N+]([O-])c1ncn(S(=O)(=O)c2cccc3cccnc23)n1	H37Rv	resazurin		inhibition		6.25 µg/mL	8%
CC[C@H]1OC(=O)[C@H](C)[C@@H](O[C@H]2C[C@@](C)(OC)[C@@H](O)[C@H](C)O2)[C@H](C)[C@@H](O[C@@H]2O[C@H](C)C[C@H](N(C)C)[C@H]2O)[C@](C)(OC)C[C@@H](C)C(=O)[C@H](C)[C@@H](O)[C@]1(C)O	ATCC 35828			MIC			>8 µg/mL
O=C[C@H](O)[C@@H](O)[C@H](O)[C@H](O)CO[C@H]1O[C@H](CO)[C@H](O)[C@H](O)[C@H]1O	H37Rv			MIC bound			>6.25 µg/mL
CN[C@@H]1[C@H](O[C@H]2[C@H](O[C@H]3[C@H](O)[C@@H](O)[C@H](N=C(N)N)[C@@H](O)[C@@H]3N=C(N)N)O[C@@H](C)[C@]2(O)C=O)O[C@@H](CO)[C@H](O)[C@H]1O	29197			MIC			<2 µg/mL
CCn1c(-c2cc3cc(Br)ccc3oc2=O)cs/c1=N\N=C\c1cc(Br)ccc1O	H37Rv			inhibition		12.5 µg/mL	81%
CC(CNCCc1ccccc1F)NCCC1=CCCCC1				MIC			50 µM
COc1cc(C2=NN(C(=O)COc3ccc4ccccc4c3)C3CCCC23)c(C)cc1OCC(=O)O	H37Rv			inhibition		6.25 µg/mL	54%
O=C(Oc1ccc(Cl)cc1C(=O)Nc1ccc(C(F)(F)F)cc1)c1cnccn1	multidrug resistant 234/2005			MIC	21 d		0.25 µM
C/C=C(/C)C(=O)OC1CC(C)(C)CC2C3=CCC4C5(C)CC[C@H](OC(C)=O)C(C)(C)C5CC[C@@]4(C)[C@]3(C)CC[C@@]12C(=O)O	H37Rv (ethambutol-resistant)			MIC			50 µg/mL
COc1ccc(CCNCCNCC23CC4CC(CC(C4)C2)C3)cc1				MIC			25 µM
CO[C@H]1/C=C/O[C@@]2(C)Oc3c(C)c(O)c4c(O)c(c5c(c4c3C2=O)NC2(CCN(CC(C)C)CC2)N=5)=NC(=O)/C(C)=C\C=C\[C@H](C)[C@H](O)[C@@H](C)[C@@H](O)[C@@H](C)[C@H](OC(C)=O)[C@@H]1C	H37Rv-pSL (Leu 531 mutation)			MIC			16 µg/mL
CC(=O)NNc1nc(C)c(C(=O)NNC(=O)C(=O)Nc2ccc(C)cc2[N+](=O)[O-])s1	H37Rv	BACTEC		MIC bound			>12.5 µg/mL
CC1(C)[C@@H]2CC[C@@]1(C)[C@@H](NCCNC1Cc3ccccc3C1)C2				MIC			50 µM
O=C(O)C1CC(C(=O)O)SS1	H37Rv	BACTEC		MIC			≥12.5 µg/mL
CCNc1oc(-c2ccc(S(=O)(=O)N3CCC(C)CC3)cc2)nc1C#N	Clinical isolate	resazurin		MIC			8 µg/mL
O=C(c1ccc([N+](=O)[O-])o1)N1CCc2cc(N3CCN(Cc4ccccc4)CC3)ccc2C1	UT26			MIC			0.012 µg/mL
Cc1cc(/C=N/Nc2ccc3cccc(O)c3n2)c(O)c2ncccc12	H37Rv	BACTEC		inhibition		12.5 µg/mL	5%
CCCCCC1(C)Cn2cc([N+](=O)[O-])nc2O1	H37Rv-T2 (PA-824-resistant)			MIC			3.2 µM
FC(F)(F)c1ccc(CNCCNC23CC4CC(CC(C4)C2)C3)cc1				MIC			>50 µM
OCCNC(=S)SSC(=S)NCCO	H37Rv	BACTEC		MIC			≥128 µg/mL
CC(C)N=c1cc2n(-c3ccc(Cl)cc3)c3ccccc3nc-2cc1Nc1ccc(Cl)cc1	H37Rv			Median MIC			0.31 µg/mL
Cc1ccc(CNCCNC(C)Cc2c[nH]c3ccccc23)cc1				MIC			50 µM
CSC(=S)N/N=C/c1cccc(C)n1	PAS-R			MIC			>12.8 µg/mL
O=c1oc2ccc(Br)cc2cc1-c1cs/c(=N/N=C/c2ccc(Cl)cc2)n1C1CCCCC1	H37Rv			MIC			>12.5 µg/mL
O=C(Oc1cc(Cl)ccc1C(=O)Nc1ccc(C(F)(F)F)cc1)c1cnccn1	multidrug resistant 53/2009			MIC	21 d		0.5 µM
CCCCn1c(-c2cc3ccccc3oc2=O)cs/c1=N\N=C\c1ccc(Cl)cc1	H37Rv			inhibition		12.5 µg/mL	81%
COc1cccc2c1[n+]([O-])c1cccc(O)c1[n+]2[O-]	CS-R			MIC			0.8 µg/mL
O=[N+]([O-])c1cn2c(n1)OC[C@@H](OCc1ccc(OCc3ccccc3)cc1)C2	H37Rv-5A2 (PA-824-resistant)			MIC			>100 µM
CCc1cc(C(N)=S)ccn1	H37Ra			Mean MIC			2.97 µg/mL
NC[C@@H]1O[C@H](O[C@H]2[C@@H](O)[C@H](O[C@@H]3[C@@H](O)[C@H](N)C[C@H](N)[C@H]3O[C@H]3O[C@H](CO)[C@@H](O)C[C@H]3N)O[C@@H]2CO)[C@H](N)[C@@H](O)[C@@H]1O[C@H]1O[C@H](CO)[C@@H](O)[C@H](O)[C@@H]1O	Aoyama B (capreomycin-resistant)			EC50			≥50 µg/mL
CCCNCCNC[C@H](C)O				MIC			50 µM
CN(C)c1ccc2nc3ccc(=[N+](C)C)c([N+](=O)[O-])c-3sc2c1	H37Rv	BACTEC		MIC			≥12.5 µg/mL
CO[C@H]1/C=C/O[C@@]2(C)Oc3c(C)c(O)c4c(O)c(c(/C=N/N5CCN(C6CCCC6)CC5)c(O)c4c3C2=O)NC(=O)/C(C)=C\C=C\[C@H](C)[C@H](O)[C@@H](C)[C@@H](O)[C@@H](C)[C@H](O)[C@@H]1C	Atencio			MIC			0.12 µg/mL
O=C(NCc1ccc(N2CCN(Cc3ccccc3)CC2)nc1)c1ccc([N+](=O)[O-])o1	CDC1551			MIC			0.05 µg/mL
O=C(Oc1ccc(Br)cc1C(=O)Nc1ccc(C(F)(F)F)cc1)c1cnccn1	multidrug resistant Praha 1			MIC	21 d		0.25 µM
NCC[C@H](O)C(=O)N[C@@H]1C[C@H](N)[C@@H](O[C@H]2O[C@H](CN)[C@@H](O)[C@H](O)[C@H]2O)[C@H](O)[C@H]1O[C@H]1O[C@H](CO)[C@@H](O)[C@H](N)[C@H]1O	H37Ra			Median MIC			0.7 µg/mL
CCCCCCCCCCCNCCNCc1ccc(OC)c(OC)c1				MIC			50 µM
CCCCNC(=O)P(=O)(O)c1ccccc1	H37Rv	BACTEC		MIC bound			>12.5 µg/mL
COC(=O)c1cnccn1	331/88			MIC	21 d		>500 µM
COc1cccc(C(=O)O/N=C(\C)c2ccccn2)c1OC	18b	resazurin		MIC			8 µg/mL
O=c1c2[nH]c3ccccc3sc=2c(=O)c2ccccc12	H37Rv	BACTEC		MIC bound			≤12.5 µg/mL
Nc1ccc(C(=O)O)c(O)c1	H37Rv			Mean MIC			0.69 µg/mL

For reference, 7 entries again:

compound | strain or isolate | read by | changes | measure | conditions | tested at | result
C=CCn1c(-c2cc3ccccc3oc2=O)cs/c1=N\N=C\c1ccc(O)c(OCC)c1 | H37Rv |  |  | MIC |  |  | >12.5 µg/mL
Cc1nc(Cl)c(C(N)=O)nc1C | H37Rv | BACTEC |  | MIC bound |  |  | >12.5 µg/mL
NC1CCN(c2c(F)cc3c(=O)c(C(=O)O)cn(C4CC4)c3c2Cl)C1 | MDR |  |  | MIC50 |  |  | 1 µg/mL
CC[C@H]1OC(=O)[C@H](C)[C@@H](O[C@H]2C[C@@](C)(OC)[C@@H](O)[C@H](C)O2)[C@H](C)[C@@H](O[C@@H]2O[C@H](C)C[C@H](N(C)C)[C@H]2O)[C@](C)(O)C[C@@H](C)CN(C)[C@H](C)[C@@H](O)[C@]1(C)O | ATCC 35823 |  |  | MIC |  |  | >8 µg/mL
CO[C@@H]1CC(=NOC(C)=O)[C@@H]2OC(c3ccccc3)OC[C@H]2O1 | H37Rv | resazurin |  | inhibition |  | 6.25 µg/mL | 32%
CO[C@H]1/C=C/O[C@@]2(C)Oc3c(C)c(O)c4c(O)c(c(/C=N/N5CCN(C6CCCC6)CC5)c(O)c4c3C2=O)NC(=O)/C(C)=C\C=C\[C@H](C)[C@H](O)[C@@H](C)[C@@H](O)[C@@H](C)[C@H](O)[C@@H]1C | Atencio |  |  | MIC |  |  | 0.12 µg/mL
COc1cc(C2=NN(C(=O)COc3ccc4ccccc4c3)C3CCCC23)c(C)cc1OCC(=O)O | H37Rv |  |  | inhibition |  | 6.25 µg/mL | 54%

Blank or dashed fields: not listed here. Fold resistance: result on the changed form divided by that on wild type. Neighbouring rows are from separate reports. Inhibition is in % at the dose shown (toxicity tests: loss of growth or viability). a–b is a range or a potency band. MIC50, MIC90 and the like: level of inhibition, or share of isolates inhibited. ECn is the concentration giving n% inhibition of infection, replication or growth.